Test: Biological incubation of ozonated column effluent, species identified by GC/MS
Parameters: key: •: found; ◯: not found
Settings: pyrene column effluent; for found in ozonated effluent, 0 day: biological incubation 0 day; for found in ozonated effluent, 5 days: biological incubation 5 days; for found in ozonated effluent, 10 days: biological incubation 10 days; for found in ozonated effluent, 15 days: biological incubation 15 days; for found in ozonated effluent, 20 days: biological incubation 20 days

| SMILES | found in ozonated effluent, 0 day | found in ozonated effluent, 5 days | found in ozonated effluent, 10 days | found in ozonated effluent, 15 days | found in ozonated effluent, 20 days |
| --- | --- | --- | --- | --- | --- |
| CCCCCCCCCCCCCCCCCCCCCC [docosane (22), docosane] | • | ◯ | ◯ | ◯ | ◯ |
| O=Cc1cccc(C=O)c1-c1c(C=O)cccc1C=O [2,2′,6,6′-biphenyltetraaldehyde (3), 2,2′,6,6′-biphenyltetraaldehyde] | • | ◯ | ◯ | ◯ | ◯ |
| CCCCCCCC(CCC)CCCCC (centres unmarked) [6-propyl tridecane (25), 6-propyl tridecane] | • | • | • | • | • |
| CC(C)CCCCCOC(=O)c1ccccc1C(=O)OCCCCCC(C)C [1,2-benzenedicarboxylic acid, diisooctyl] | • | • | • | • | • |
| CCCCCCCCCCCCCCCCCCCCCCC [tricosane (23), tricosane] | • | • | • | • | • |
| CCCCCCCCCCCCCCCC [hexadecane (19), hexadecane] | • | ◯ | ◯ | ◯ | ◯ |
| CCCCOC(=O)C(C)C [propanoic acid, 2-methyl-, butyl ester] | • | ◯ | ◯ | ◯ | ◯ |
| CCCCCCCCCCCCCCCCCCCCCCCCC [pentacosane (20), pentacosane] | • | • | • | • | • |
| CCCCCCCCCCCCCCCCCCCCCCCC [tetracosane (24), tetracosane] | • | • | • | • | • |
| CCCCOCCOCCO [ethanol, 2-[2-butoxyethoxy]-(14), ethanol, 2-[2-butoxyethoxy]-] | ◯ | ◯ | ◯ | ◯ | ◯ |
| CCCCCCCCCCCCCCCCCCCCC [henicosane (21), henicosane] | • | ◯ | ◯ | ◯ | ◯ |
| C1CCCCCCCCCCC1 [cyclododecane (29), cyclododecane] | • | • | • | • | • |
| CCCCCCCCCCCCCC [tetradecane (17), tetradecane] | • | • | • | • | • |
| CCCCCCCCCCCCCCCC(=O)O [hexadecanoic acid (16), hexadecanoic acid] | • | ◯ | ◯ | ◯ | ◯ |
| CCCCCCCCCCCCCCCCCCCCCCCCCC [hexacosane (28), hexacosane] | • | • | • | • | • |
| Cc1cc(C(C)(C)C)c(O)c(C(C)(C)C)c1 [butylated hydroxytoluene (11), butylated hydroxytoluene] | • | • | • | • | • |

Source: patent US8557565B2, “Degradation of polycyclic aromatic hydrocarbons to render them available for biodegradation” (priority 1999, dated 2013)
